# Data published in ChEMBL document CHEMBL1125866, “Aldophosphamide acetal diacetate and structural analogues: synthesis and cytotoxicity studies” (J Med Chem, 1991).
# System: L1210
# Assay: Concentration required to reduce the viability of L1210 cells by 50% after 1-h incubation at 37 degrees C
# Assay type: functional, cell-based
# Conditions: Mus musculus, L1210, 1 h
# Outline: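 L1210 murine leukemia cells, exponentially growing, 5 × 10^5/mL in RPMI 1640 with 10% heat-inactivated fetal calf serum, pH 7.4. Exposed to at least seven drug concentrations (0.1–300 μM) for 1 h at 37 °C, washed, regrown drug-free 72 h. MTT reduction read at 570 nm. IC50 from concentration–viability plot, average of duplicates.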
structure (smiles),measurement,value
O=P1(N(CCCl)CCCl)NC(SCCS(=O)(=O)O)CCO1 (stereo unspecified) [MAFOSFAMIDE],pIC50,4.38

# pIC50: −log10 of the molar value.
